In publication PMC5864733 (Nature Communications, 2018):

Molecular target: T1, CsrA (residues 1-61), GST tag removed (enteropathogenic E. coli (EPEC) O127:H6 …, UniProt P69913 1-61)
T1 construct: also called WT CsrA; native CsrA
Experiment: crystal structure
Settings: both partners purified

B1: CsrA-Cdel (residues 1-44) (domain or fragment)
chain: MLILTRRVGETLMIGDEVTVTVLGVKGNQVRIGVNAPKEVSVHR
notes: source: E. coli BL21(DE3), purified (GST column, gel filtration)
B1: binds.
